Compound potency records, mixed from different reports. Data source: NIAID ChemDB in PubChem.

All rows: growth or infection tests; organism: HIV-1; read-out: EC50

Lines come from different laboratories, so protocols vary. ECn: concentration that inhibits the pathogen or its effect by n%. a–b is a range or a potency band. Blank or dashed fields: not listed here.

| smiles | read by | cell line | strain or isolate | mutations | result |
|---|---|---|---|---|---|
| Cc1cc(C#N)cc(C)c1Oc1nc(Nc2ccc(C#N)cc2)nc(N)c1Br | luciferase | HEK293T | MJ4 C | N348I | 2.05 nM |
| CC[C@H](CC[C@](C)(O)[C@H]1CC[C@H]2[C@@H]3[C@H](O)C=C4C[C@@H](O)CC[C@]4(C)[C@H]3CC[C@@]21C)C(C)C | MTT | MT-4 | NL4-3 | - | 1.22 µM |
| CCCCCCCC/C=C/CCCCCCCCC(=O)Oc1c(OC)cc2ccnc3c2c1N(C)C=C3 | - | - | - | - | 52.8 µM |
| NCCNc1nc(-c2ccco2)cc(-c2cc3ccccc3s2)n1 | RT activity | PBMC | LAV-1 | - | 1.9 µM |
| CC(C)C1=C2[C@H]3CC[C@@H]4[C@@]5(C)CC[C@H](OC(=O)C6C[C@@H](C(=O)O)C6(C)C)C(C)(C)[C@@H]5CC[C@@]4(C)[C@]3(C)CC[C@@]2(NC(=O)C(C)(C)NC(=O)CN2CCS(=O)(=O)CC2)CC1=O | p24 | MT-4 | NL4-3 | - | <0.005 µM |
| O=C1N[C@H](COC(=O)N[C@@H](Cc2ccccc2)[C@H](O)CN(CC2CCCC2)S(=O)(=O)c2ccc(Cl)cc2)CO1 | p24 | CEM | IIIB | - | <0.101 µM |
| CC1=C[C@H]2[C@@]3(O)[C@H](C)[C@@H](OC(=O)CCCCC4SCC5NC(=O)NC54)[C@]4(OC(=O)CCCCC5SCC6NC(=O)NC65)[C@H]([C@@H]3C=C(CO)C[C@]2(O)C1=O)C4(C)C | p24 / ELISA | C8166 | IIIB | - | >200 µM |
| CCCCCCCCCCCCCCCCCCOCCOP(=O)(O)CO[C@H](CO)Cn1ccc(N)nc1=O | p24 / ELISA | PBMC | LAI | - | 0.013 µM |
| CC1=C(C(=O)OCC2CCCCC2)C(c2cccc(OC(=O)C(C)(C)C)c2)NC(=O)N1 | p24 / ELISA | CEM | - | - | ≤1 µM |
| COCCNC(=O)c1c(O)c2ncc(Cc3ccc(F)cc3)c3c2n(c1=O)C[C@](C)(C(=O)N1CCOCC1)O3 | ATP / luminescence | MT-2 | IIIB | - | 0.0143 µM |
| Cc1ccc(-c2ccc3c(c2)C=C(C(=O)Nc2ccc(C[N+](C)(C)C4CCOCC4)cc2)CCC3)cc1 | p24 | PBMC | TB7 CLADE C | - | <1 µM |
| COP(=O)(c1cc(C)cc(CCC#N)c1)c1c(C(N)=O)[nH]c2ccc(Cl)cc12 | - | MT-2 | Clinical isolate | Y181C M184V | 0.0015 µM |
| CC/C=C\C/C=C\C/C=C\C/C=C\C/C=C\C/C=C\CCC(=O)O[C@@H]1[C@@H](C)[C@@]2(O)[C@@H](C=C(CO)C[C@]3(O)C(=O)C(C)=C[C@@H]23)[C@@H]2C(C)(C)[C@]12OC(C)=O | syncytia / visual reading | C8166 | IIIB | - | 0.9431 µM |
| C=CCOC(=O)N[C@@H](Cc1ccccc1)[C@H](O)CN(CC1CCCC1)S(=O)(=O)c1ccc(Cl)cc1 | p24 | CEM | IIIB | - | <1.001 µM |
| CNC(=O)c1c(O)c2ncc(Cc3ccc(F)cc3)c3c2n(c1=O)C[C@](C)(C(=O)NC1CC1)O3 | ATP / luminescence | MT-2 | IIIB | - | 0.015 µM |
| Cc1nnc(-c2ccc(C(=O)NC(C)(C)C(=O)N[C@@]34CC[C@]5(C)[C@H](CC[C@@H]6[C@@]7(C)CC[C@H](OC(=O)C8C[C@@H](C(=O)O)C8(C)C)C(C)(C)[C@@H]7CC[C@]65C)C3=C(C(C)C)C(=O)C4)cc2)o1 | p24 | MT-4 | NL4-3 | V7A | 0.01001–0.05 µM |
| CN(C)CCNc1nc(-c2cccc(SCCN(C)C)c2)cc(-c2cccs2)n1 | RT activity | PBMC | LAV-1 | - | 1.3 µM |
| Cc1cc(CNC(=O)c2nc3n(c(=O)c2O)[C@@H](C)COC[C@H]3N(C)C(=O)C(=O)N(C)C)ccc1F | single cycle | HeLa P4-2 | - | E92Q | 0.001 µM |
| CCC1=C(c2nc(C3CCCCC3)cs2)C(c2ccccc2OC)NC(=O)N1 | p24 / ELISA | CEM | - | - | >5 µM |
| O=C(N[C@@H](Cc1ccccc1)[C@H](O)CN(CC1CCCC1)S(=O)(=O)c1ccc([N+](=O)[O-])cc1)O[C@@H]1CCOC1 | p24 | CEM | IIIB | - | <0.101 µM |
| CCC1=C(c2nc(C3CCCCC3)cs2)C(c2cccc(C#N)c2)NC(=O)N1 | p24 / ELISA | CEM | - | - | 1–5 µM |
| Cc1ccc(C(=O)NC(C)(C)C(=O)N[C@@]23CC[C@]4(C)[C@H](CC[C@@H]5[C@@]6(C)CC[C@H](OC(=O)C7C[C@@H](C(=O)O)C7(C)C)C(C)(C)[C@@H]6CC[C@]54C)C2=C(C(C)C)C(=O)C3)cn1 | p24 | MT-4 | NL4-3 | - | <0.005 µM |
| O=C(NCCO)c1c(O)c2ncc(Cc3ccc(F)cc3)c3c2n(c1=O)CCCN3 | ATP / luminescence | MT-2 | IIIB | - | 0.008 µM |
| CC[C@H](C)[C@H](NC(=O)OCc1ccccc1)C(=O)N[C@@H](Cc1ccccc1)[C@H](O)CN(CC(C)C)S(=O)(=O)c1ccc(F)c(NC(C)=O)c1 | p24 | CEM | IIIB | - | <0.101 µM |
| CC(C)C1=C2[C@H]3CC[C@@H]4[C@@]5(C)CC[C@H](OC(=O)C6C[C@@H](C(=O)O)C6(C)C)C(C)(C)[C@@H]5CC[C@@]4(C)[C@]3(C)CC[C@@]2(NC(=O)C(C)(C)NC(=O)c2ccc(S(C)(=O)=O)cc2)CC1=O | p24 | MT-4 | NL4-3 | - | 0.00501–0.01 µM |
| CCC1=C(C(=O)OCC2CCCCC2)[C@H](c2ccc(OC(=O)[C@H](C)NC(=O)OC(C)(C)C)cc2)NC(=O)N1 | p24 / ELISA | CEM | - | - | ≤1 µM |
| CO[C@]1(C)CC[C@@H](N(C)C(=O)C(=O)N(C)C)c2nc(C(=O)NCc3ccc(F)c(C)c3)c(O)c(=O)n2C1 | single cycle | HeLa P4-2 | - | N155H | 0.002 µM |
| CCC1=C(c2nc(C3CCCCC3)cs2)C(c2ccc(C(F)(F)F)cc2)NC(=O)N1 | p24 / ELISA | CEM | - | - | 1–5 µM |
| CN1CCN(CCSc2nnc(-c3cc4ccccc4s3)c3ccccc23)CC1 | RT activity | PBMC | LAV-1 | - | 17.2 µM |
| O=P(O)(O)OP(=O)(O)OP(=O)(O)OP(=O)(O)O | RT activity | H9 | IIIB | - | >100 µg/mL |
| CC/C=C\C/C=C\C/C=C\C/C=C\C/C=C\CCCC(=O)O[C@@H]1[C@@H](C)[C@@]2(O)[C@@H](C=C(CO)C[C@]3(O)C(=O)C(C)=C[C@@H]23)[C@@H]2C(C)(C)[C@]12OC(=O)CCC | syncytia / visual reading | C8166 | IIIB | - | 1.17 µM |
| CCCCCCCCCCCCCCCCCCOCCOP(=O)(O)CO[C@H](CO)Cn1cnc2c(N)nc(N)nc21 | p24 / ELISA | PBMC | NRTI-MDR | M41L D67N K70R T215Y K219Q | 0.057 µM |
| CC(C)[C@H](C)CC[C@](C)(O)[C@H]1C(=O)C[C@H]2[C@@H]3C(=O)C=C4C[C@@H](O)CC[C@]4(C)[C@H]3CC[C@@]21C | MTT | MT-4 | NL4-3 | K65R RI-resistant | 0.1393 µM |
| N=C1Sc2ccccc2C2=NCCCN12 | β-galactosidase | PBMC | 92UG029 | - | 1.18 µM |
| CC[C@H]1COC[C@H](N(C)C(=O)C(=O)N(C)C)c2nc(C(=O)NCc3ccc(F)cc3)c(O)c(=O)n21 | single cycle | HeLa P4-2 | - | N155H | 0.003 µM |
| CCCCCCCCCCCCCCCCCCOCCOP(=O)(O)CO[C@H](CO)Cn1cnc2c(=O)[nH]c(N)nc21 | p24 / ELISA | PBMC | LAI | - | 0.003 µM |
| CC(C)C1=C2[C@H]3CC[C@@H]4[C@@]5(C)CC[C@H](OC(=O)C6C[C@@H](C(=O)O)C6(C)C)C(C)(C)[C@@H]5CC[C@@]4(C)[C@]3(C)CC[C@@]2(NC(=O)C(C)(C)NS(C)(=O)=O)CC1=O | p24 | MT-4 | NL4-3 | V7A | >0.05 µM |
| CC(=O)O[C@@]12[C@H](OC(=O)CCCCCCBr)[C@@H](C)[C@@]3(O)[C@@H](C=C(CO)C[C@]4(O)C(=O)C(C)=C[C@@H]34)[C@@H]1C2(C)C | p24 / ELISA | C8166 | IIIB | - | 0.0474 µM |
| O=C(NCCO)c1c(O)c2ncc(Cc3ccc(F)cc3)c3c2n(c1=O)CC(CO)(CO)O3 | ATP / luminescence | MT-2 | IIIB | - | 0.032 µM |
| CN1CCN(CCSc2nc(-c3ccccc3)c3ccccc3n2)CC1 | RT activity | PBMC | LAV-1 | - | 22.4 µM |
| COc1cc2ccnc3c2c(c1OC(=O)c1cccc(C)c1)N(C)C=C3 | - | - | - | - | 9.9 µM |
| CC(=O)Nc1ccc(S(=O)(=O)N(CC(C)C)C[C@@H](O)[C@H](Cc2ccccc2)NC(=O)[C@@H](NC(=O)OCc2ccccn2)C(C)C)cc1 | p24 | CEM | IIIB | - | <0.101 µM |
| Cc1cnc(C(=O)NC(C)(C)C(=O)N[C@@]23CC[C@]4(C)[C@H](CC[C@@H]5[C@@]6(C)CC[C@H](OC(=O)C7C[C@@H](C(=O)O)C7(C)C)C(C)(C)[C@@H]6CC[C@]54C)C2=C(C(C)C)C(=O)C3)cn1 | p24 | MT-4 | NL4-3 | - | <0.005 µM |
| CCCCCCCCC(=O)O[C@@]12[C@H](OC(=O)/C=C/c3ccc(F)cc3)[C@@H](C)[C@@]3(O)[C@@H](C=C(CO)C[C@]4(O)C(=O)C(C)=C[C@@H]34)[C@@H]1C2(C)C | p24 / ELISA | C8166 | IIIB | - | 0.0029 µM |
| CCC1=C(C(=O)OCC2CCCCC2)C(c2cc(N)ccc2Cl)NC(=O)N1 | p24 / ELISA | CEM | - | - | >5 µM |
| CC[C@@H]1COC[C@H](N(C)C(=O)C(=O)N(C)C)c2nc(C(=O)NCc3ccc(F)cc3)c(O)c(=O)n21 | single cycle | HeLa P4-2 | - | Y143R | 0.002 µM |
| CC(C)C1=C2[C@H]3CC[C@@H]4[C@@]5(C)CC[C@H](OC(=O)C6C[C@@H](C(=O)O)C6(C)C)C(C)(C)[C@@H]5CC[C@@]4(C)[C@]3(C)CC[C@@]2(NC(=O)C(C)(C)NC(=O)c2ccc(Cl)cc2)CC1=O | p24 | MT-4 | NL4-3 | - | <0.005 µM |
| COc1cc2ccnc3c2c(c1OC(=O)c1ccccc1C)N(C)C=C3 | - | - | - | - | 1.3 µM |
| CCC1=C(C(=O)c2ccc(C)cc2)C(c2cccc(O)c2)NC(=O)N1 | p24 / ELISA | CEM | - | - | >5 µM |
| C=C(C)CN(C[C@@H](O)[C@H](Cc1ccccc1)NC(=O)O[C@@H]1CCOC1)S(=O)(=O)c1ccc(F)cc1 | p24 | CEM | IIIB | - | <1.001 µM |
| COc1cc2ccnc3c2c(c1OC(=O)c1cc(F)ccc1F)N(C)C=C3 | - | - | - | - | 2.1 µM |
| Cc1cn(-c2ccc(C(=O)NC(C)(C)C(=O)N[C@@]34CC[C@]5(C)[C@H](CC[C@@H]6[C@@]7(C)CC[C@H](OC(=O)C8C[C@@H](C(=O)O)C8(C)C)C(C)(C)[C@@H]7CC[C@]65C)C3=C(C(C)C)C(=O)C4)cc2)cn1 | p24 | MT-4 | NL4-3 | V7A | >0.05 µM |
| C=CCOC(=O)N[C@@H](Cc1ccccc1)[C@H](O)CN(CC1CCCC1)S(=O)(=O)c1ccc(NC(C)=O)cc1 | p24 | CEM | IIIB | - | <0.101 µM |

4 of the rows above, restated:

smiles	read by	cell line	strain or isolate	mutations	result
COc1cc2ccnc3c2c(c1OC(=O)c1cc(F)ccc1F)N(C)C=C3	-	-	-	-	2.1 µM
CC[C@H](CC[C@](C)(O)[C@H]1CC[C@H]2[C@@H]3[C@H](O)C=C4C[C@@H](O)CC[C@]4(C)[C@H]3CC[C@@]21C)C(C)C	MTT	MT-4	NL4-3	-	1.22 µM
Cc1cc(CNC(=O)c2nc3n(c(=O)c2O)[C@@H](C)COC[C@H]3N(C)C(=O)C(=O)N(C)C)ccc1F	single cycle	HeLa P4-2	-	E92Q	0.001 µM
CC[C@@H]1COC[C@H](N(C)C(=O)C(=O)N(C)C)c2nc(C(=O)NCc3ccc(F)cc3)c(O)c(=O)n21	single cycle	HeLa P4-2	-	Y143R	0.002 µM